# ± gives the standard deviation. The entries are a selection whose mix differs from that of the whole data set.
# Key:
# Details in all cases: modulator concentration 10 µM
# [1] = test system: RAW-Dual (murine macrophage reporter line); experiment: NF-kB reporter (SEAP) activity fold change vs agonist alone; higher = enhanced NF-kB activity
# In short: (§1)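 In 384-well plates holding 50 000 RAW-Dual murine macrophage reporter cells per well, compound at 10 μM final was pre-incubated for 1 hour at 37 °C, after which a PRR agonist was added overnight. Supernatant SEAP read with QUANTI-Blue at 620 nm absorbance reported NF-κB, and Lucia luciferase read with QUANTI-Luc luminescence reported IRF. Fold change values come from dividing each reporter signal by the mean of agonist-only control wells on the same plate, averaged over replicate plates with propagated errors.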
# [2] = test system: RAW-Dual (murine macrophage reporter line); experiment: IRF reporter (Lucia luciferase) activity fold change vs agonist alone; higher = enhanced IRF activity
# In short: as §1
# [3] = test system: RAW-Dual (murine macrophage reporter line); experiment: viability score (confluency relative to resting cells, overnight) (fraction); higher = more viable, active = viable (0.7 or more)
# In short: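 In 384-well plates, RAW-Dual macrophages received compound at a final 10 μM overnight. Two confluency masks were then made with IncuCyte software from IncuCyte images of all imaged wells. The viability score is defined as confluency relative to resting cells. Passing the cutoff required both masks to lie above 70% of resting cells.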
smiles,measurement,setting,value
O=C(CBr)c1ccc(Cl)cc1,NF-kB reporter,[1]; agonist: CpG ODN 1826 0.5 ug/mL,1.78 ± 0.2
same,NF-kB reporter,[1]; agonist: LPS 0.1 ug/mL,1.22 ± 0.059
same,NF-kB reporter,[1]; agonist: MPLA […],2.17 ± 0.069
same,IRF reporter,[2]; agonist: 3'3'-cGAMP 10 ug/mL,1 ± 0.065
same,IRF reporter,[2]; agonist: LPS 0.1 ug/mL,1.08 ± 0.037
same,IRF reporter,[2]; agonist: MPLA […],1.6 ± 0.19
same,viability score,[3],active: 0.976

# From the supplement of paper PMC10646978
